Patent publication US20260382604A1, “Inhibitors of Type 1 Methionyl-tRNA Synthetase and Methods of Using Them” (published 2026)
pEC50: −log10 of the molar value. Values joined by “and” are separate entries in the source; they are usually repeats but may differ in a detail not shown here. Equal entries are not always repeated. Where two headings read alike, the source gives them in different places.

Legend:
T. cruzi [1] = assay: T. cruzi growth inhibition assay
Protocol: Trypanosoma crud growth inhibition assay: The Tulahuen strain of T. cruzi that expresses the Escherichia coli 3-galactosidase gene was utilized (PMID: 8913471). Mammalian stages of parasites were grown at 37 °C on monolayers of murine 3T3 fibroblasts in RPMI 1640 (Biowhittaker Inc., Walkersville, Md.) with 10% fetal bovine serum, penicillin, streptomycin, and glutamine. Growth inhibition assays were performed in 96-well tissue culture plates (Costar, Cambridge, Mass.). First, 3T3 fibroblasts were inoculated at 103/well using RPMI 1640 without phenol red (Biowhittaker Inc.) plus 10% fetal bovine serum and glutamine. The next day, the plates were infected with T. cruzi trypomastigotes at 104/well. After 4 h, drugs were added in serial dilutions to give a final volume of 200 μl/well. The plates were incubated at 37 °C in 5% CO2 atmosphere for 6 days. At this time. CPRG (100 μM final) and Nonidet P-40 (0.1% final) (Sigma Chemical Co., St. Louis, Mo.) were added and the plates were incubated at 37 °C for approximately 4 h. Wells with 0-galactosidase activity turned the media from yellow to red, and this was quantified on an enzyme-linked immunosorbent assay reader at A570.

T. cruzi [2] = assay: In vivo acute T. cruzi infection model; conditions: for Log decrease from vehicle: PO, dose 50, 2 times/day, 5 days of treatment
Protocol: In vivo acute T crud infection model. Swiss Webster mice were infected with 2×10^4 Trypanosoma cruzi trypomastigotes expressing a red-shifted luciferase gene IP on day zero (M. D. Lewis et al. J Biomol Screen 2015; 20(1):36-43). Mice were dosed orally with the test compounds, vehicle, or the control drug (benznidazole) for 5 days (days 7-11 post-infection). The parasites were imaged and quantified using an IVIS imaging system at multiple time points. The substrate D-luciferin potassium salt was injected SC at 150 mg/kg into mice, followed by imaging 10-15 minutes post injection. Images were taken for each set of mice both dorsally and ventrally. Auto-exposure settings are used with a maximum exposure time set to 5 minutes. The signal from these images is combined and standardized by converting the readouts to radiance (photons/sec/cm^2/sr). The decrease in luminescence compared to vehicle control was quantified on day 13 post-infection.

T. brucei = assay: Trypanosoma brucei growth inhibition assay; conditions: read-out: T. brucei EC50; in vitro growth inhibition
Protocol: Trypanosoma brucei growth inhibition assay: Compounds are tested for anti-trypanosomal activity against Trypanosoma brucei cells (BSF 427 parasites) in HMI-9 media containing 10% heat inactivated FBS 100 U mL^−1 penicillin/100 μg mL^−1 streptomycin at 37 °C with 5% CO2. Test compounds are assayed in a 96-well format in triplicate with serial 3-fold dilutions of compound or a pentamidine control against an initial inoculum of 10 000 cells/well and quantified at 48 hours with Alamar Blue (Invitrogen, Waltham, MA).

MRSA = assay: Susceptibility testing (MIC), MRSA
Source text: (§1) Media and culture conditions. Mueller Hinton broth (MHB), cation adjusted Mueller Hinton broth (CA-MHB), Todd Hewitt Broth (THB) and Brain Heart Infusion broth (BHI) were purchased from Becton Dickinson (Franklin Lakes, NJ). Tryptic soy agar (TSA) plates and TSA with 5% sheep blood plates were purchased from Remel (San Diego, CA). MHB was used to assay all Staphylococcus aureus strains. CA-MHB was used for Staphylococcus epidermidis, Enterococcus faecalis, Enterococcus faecium, Escherichia coil, and Pseudomonas aeruginosa. THB broth supplemented with 1% yeast extract was used for Streptococcus pneumoniae and Streptococcus pyogenes. Staphylococcus. Enterococcus, Escherichia, and Pseudomonas strains were cultured at 37 °C with ambient air. Streptococcus strains were cultured in 37 °C with 5% CO2. Separate conditions for radiolabeled precursor uptake assays are described below.
(§2) Susceptibility testing: Minimum inhibitory concentration (MIC) determinations are performed in triplicate in 96-well round bottom microtiter plates (Corning, Corning NY) as described by the Clinical and Laboratory Standards Institute (CLSI). Serial two-fold dilutions of compounds are added to plates in 50 μL volumes. An additional 50 μL of media containing bacterial cells (1×10^6 CFUs/mL) is then added to each well. Maximum DMSO concentrations are 0.5%. Plates are incubated at 37 °C for at least 18 h before reading the susceptibility result by optical absorbance (OD600) using a BioTek ELx800. The lowest concentration causing ≥90% growth inhibition compared to the untreated control is recorded as the MIC (and also corresponded to the visual MIC). MICs are measured at least twice and the higher value (if different) is recorded herein.

S. pyogenes = assay: Susceptibility testing (MIC), S. pyogenes; conditions: ATCC19615
Source text: as §1, §2

S. aureus [3] = assay: Susceptibility testing (MIC), S. aureus; conditions: ATCC29213
Source text: as §1, §2

S. aureus [4] = assay: Serum shift MIC, S. aureus; conditions: serum shift procedure, with serum (50% human serum)
Source text: as §1, §2
Serum shift assays: To assess the role of protein binding on compound susceptibility, MIC determinations are performed in triplicate in the presence and absence of 50% human serum. Serial threefold dilutions of 2× compound are generated in MHB or THY (depending on organism) and aliquoted onto 96 well plates with a DMSO limit of 0.5%. Bacteria are adjusted to 1*10^8 CFUs/mL in media, then further diluted 1:100 in media and 100% heat deactivated filter sterilized pooled human serum. Fifty microliters are added to each well of the corresponding plates, and the plates are incubated at 37 °C for ~20 h. The lowest concentration causing ≥90% growth inhibition is recorded as the MIC.

[5] = read-out: In Vitro EC50, anti-T. cruzi activity in vitro (Table 3)
[6] = read-out: T. cruzi EC50, in vitro growth inhibition (Table 4)

| SMILES | pEC50 (T. cruzi [1]; [5]) | Log decrease from vehicle (T. cruzi [2]) | pEC50 (T. brucei) | MRSA (ATCC33591) MIC (MRSA) | S. pyogenes (ATCC19615) MIC (S. pyogenes) | S. aureus (ATCC29213) MIC (S. aureus [3]) | pEC50 (T. cruzi [1]; [6]) | S. aureus MIC w Serum (S. aureus [4]) | in vivo efficacy (in words) (T. cruzi [2]; compared to non-fluorinated analogs such as 2503 and 2602) |
| --- | --- | --- | --- | --- | --- | --- | --- | --- | --- |
| COc1ccc(-c2ccc(OC)c3c2CN(Cc2nc4nc(Cl)ccc4[nH]2)C3=O)c(Cl)c1 | 8.30 | 0.46 | – | – | – | – | – | – | – |
| COc1cc(Cl)c(-c2c(Cl)ncc3nn(Cc4nc5ccc(Cl)nc5[nH]4)cc23)cc1OC | – | – | 7.74 | 0.504 µg/mL | 1.82 µg/mL | 0.314 µg/mL | – | – | – |
| COc1ccc(-c2ccc(NC(C)=O)c3c2CN(Cc2nc4nc(Cl)ccc4[nH]2)C3=O)c(Cl)c1 | 8.10 | 0.37 | – | – | – | – | – | – | – |
| CCOc1ncc(-c2cc(OC)c(OC)cc2Cl)c2cn(Cc3nc4ccc(Cl)nc4[nH]3)nc12 | – | – | 8.40 | 0.271 µg/mL | 0.518 µg/mL | 0.167 µg/mL | – | – | – |
| COc1cc(Cl)c(-c2cnc(-c3cnn(C)c3)c3nc(Cc4nc5nc(Cl)ccc5[nH]4)cn23)cc1OC | 8.46 | 2.48 | – | – | – | – | – | – | – |
| COc1cc(Cl)c(-c2cnc(N3CC4CCC(C3)O4)c3nn(Cc4nc5ccc(Cl)nc5[nH]4)cc23)cc1OC | – | – | > 9.04 | 0.123 µg/mL | 0.242 µg/mL | 0.11 µg/mL | – | – | – |
| COc1cc(Cl)c(-c2cnc(Cl)c3nn(Cc4nc5nc(Cl)ccc5[nH]4)cc23)cc1OC | – | – | 7.59 and 7.83 and 7.88 | 0.0415 µg/mL | 0.499 µg/mL | – | – | – | – |
| COc1cc(Cl)c(-c2cnc(N3CCN(S(C)(=O)=O)CC3)c3nn(Cc4nc5nc(Cl)ccc5[nH]4)cc23)cc1OC | – | – | – | 0.174 µg/mL | 0.237 µg/mL | 0.0969 µg/mL | 6.75 | – | – |
| COc1cc(Cl)c(-c2cnc(OCCO)c3nn(Cc4nc5nc(Cl)ccc5[nH]4)cc23)cc1OC | – | – | – | 0.216 µg/mL | 0.225 µg/mL | 0.214 µg/mL | 6.28 | – | – |
| COc1cc(Cl)c(-c2cnc(N3CCC(F)(F)CC3)c3nn(Cc4nc5ccc(Cl)nc5[nH]4)cc23)cc1OC | – | – | 8.97 | 0.11 µg/mL | 0.544 µg/mL | 0.113 µg/mL | – | – | – |
| COc1cc(Cl)c(-c2cnc(N3CCNCC3)c3nn(Cc4nc5nc(Cl)ccc5[nH]4)cc23)cc1OC | – | – | 7.62 | 0.718 µg/mL | >4.00 µg/mL | 0.724 µg/mL | – | – | – |
| COc1cc(Cl)c(-c2cnc(N3CCC(CO)CC3)c3nn(Cc4nc5nc(Cl)ccc5[nH]4)cc23)cc1OC | – | – | – | 0.576 µg/mL | 0.705 µg/mL | 0.229 µg/mL | 6.36 | – | – |
| COc1cc(Cl)c(-c2cncc3nn(Cc4nc5nc(Cl)ccc5[nH]4)cc23)cc1OC | – | – | 8.03 | 0.111 µg/mL and 0.0713 µg/mL | 0.395 µg/mL | – | – | – | – |
| COc1cc(Cl)c(-c2cnc(N3CCN(S(=O)(=O)CCl)CC3)c3nn(Cc4nc5nc(Cl)ccc5[nH]4)cc23)cc1OC | – | – | – | 0.153 µg/mL | 0.108 µg/mL | 0.0958 µg/mL | 6.93 | – | – |
| COc1ccc(-c2cccc3nn(Cc4nc5nc(Cl)ccc5[nH]4)cc23)c(Cl)c1 | – | – | – | – | – | – | – | 16 µg/mL | – |
| COc1cc(Cl)c(-c2cnc(Cl)c3nn(Cc4nc5nc(F)ccc5[nH]4)cc23)cc1OC | – | – | 7.85 | 0.0658 µg/mL | 0.507 µg/mL | 0.104 µg/mL | – | – | – |
| COc1cc(Cl)c(-c2cnc(NCCO)c3nn(Cc4nc5nc(Cl)ccc5[nH]4)cc23)cc1OC | – | – | 7.59 and 7.63 | 1.09 µg/mL | 1.04 µg/mL | 1.16 µg/mL | – | – | – |
| COc1cc(Cl)c(-c2cnc(NCC(C)(C)N)c3nn(Cc4nc5nc(Cl)ccc5[nH]4)cc23)cc1OC | – | – | 7.04 | – | – | >8.00 µg/mL | – | – | – |
| COc1cc(Cl)c(-c2cnc(N3CCN(C(=O)CO)CC3)c3nn(Cc4nc5nc(Cl)ccc5[nH]4)cc23)cc1OC | – | – | – | 0.216 µg/mL | 0.207 µg/mL | 0.328 µg/mL | 6.10 | – | – |
| COc1cc(Cl)c(-c2cnc(NCCNC(=O)OC(C)(C)C)c3nn(Cc4nc5nc(Cl)ccc5[nH]4)cc23)cc1OC | – | – | – | 2.4 µg/mL | >4.00 µg/mL | 0.994 µg/mL | 6.22 | – | – |
| COc1cc(Cl)c(-c2cnc(N3CCN(C(=O)COC(C)=O)CC3)c3nn(Cc4nc5nc(Cl)ccc5[nH]4)cc23)cc1OC | – | – | – | 0.545 µg/mL | 0.201 µg/mL | 0.286 µg/mL | 6.11 | – | – |
| COc1cc(Cl)c(-c2cnc(SC)c3nn(Cc4nc5nc(Cl)ccc5[nH]4)cc23)cc1OC | – | – | – | 0.07 µg/mL | 0.0697 µg/mL | <0.0312 µg/mL | 7.53 and 7.29 and 7.28 | – | – |
| COc1cc(Cl)c(-c2cnc(NC3CCOCC3)c3nn(Cc4nc5ccc(Cl)nc5[nH]4)cc23)cc1OC | – | – | 8.56 | 0.463 µg/mL | 1.32 µg/mL | 0.349 µg/mL | – | – | – |
| COc1cc(Cl)c(-c2cncc3nn(Cc4nc5nc(F)ccc5[nH]4)cc23)cc1OC | – | – | 8.25 and 8.06 | – | 0.473 µg/mL and 0.246 µg/mL | 0.0583 µg/mL | – | – | – |
| COc1cc(Cl)c(-c2c(F)nc(-c3cnn(C)c3)c3nc(Cc4nc5nc(Cl)ccc5[nH]4)cn23)cc1OC | 8.21 | 3.01 | – | – | – | – | – | – | useful in vivo efficacy |
